Results of unrelated studies side by side (data: NIAID ChemDB).

All rows: target-level tests; agent: Hepatitis C virus; protein: NS5B polymerase; read-out: IC50

Neighbouring rows are from separate reports. ICn: concentration for n% inhibition. Two numbers with a dash give a range or band.

structure | result
O=C1/C(=C\c2ccc[nH]2)SC(=S)N1NS(=O)(=O)c1ccccc1 | >30 µM
C[C@@]1(O)[C@H](O)[C@@H](CO)O[C@H]1n1ccc2c(N)ncnc21 | <100 µM
CN(C)CCNc1cc(C(=O)Nc2ccc3nc[nH]c3c2)c(F)cc1F | >0.1 µg/mL
O=C1/C(=C\c2ccc(Br)cc2)SC(=S)N1NS(=O)(=O)c1ccccc1 | 0.44 µM
C[C@@]1(O)[C@H](O)[C@@H](CO)O[C@H]1n1cnc2c(=O)[nH]c(N)nc21 | <100 µM
CO[C@@H]1[C@H](O)[C@@H](CO)O[C@H]1n1ccc(N)nc1=O | 3.8 µM
Cc1cccc(/C=C2/SC(=S)N(NS(=O)(=O)c3ccccc3)C2=O)n1 | >30 µM
O=C(N[C@H](C(=O)O)c1c[nH]c2ccc(O)cc12)c1ccc2c(c1)nc(-c1ccc(C(F)(F)F)cc1)n2C1CCCCC1 | 1–5 µM
O=C(O)c1ccc(-c2ccc(F)c(Cl)c2)c(COc2ccc(-c3nc4cc(-c5nn[nH]n5)ccc4n3C3CCCCC3)c(F)c2)c1 | 0.04 µM
COC(=O)[C@H](C)NP(=O)(OC[C@H]1O[C@@H](n2ccc3c(N)nc(N)nc32)[C@](C)(O)[C@@H]1O)Oc1ccccc1 | <100 µM
O=C(O)/C=C/c1ccc(NC(=O)C2(NC(=O)c3ccc4c(c3)nc(-c3ccoc3)n4C3CCCCC3)CCC2)cc1 | 0.05 µM
CC(=C\c1ccccc1)/C=C1/SC(=S)N(NS(=O)(=O)c2ccccc2)C1=O | ≤30 µM
CCC[C@]1(CC(=O)O)OCCc2c1[nH]c1c(Cl)ccc(Cl)c21 | 0.06 µM
O=C1/C(=C\c2ccc(Br)c(Br)c2)SC(=S)N1NS(=O)(=O)c1ccc(F)cc1 | ≤30 µM
COCCNc1nc(Nc2ccc3[nH]ncc3c2)nc(OC)n1 | >0.1 µg/mL
O=C1/C(=C\c2cc(Br)ccc2F)SC(=S)N1NS(=O)(=O)c1ccccc1 | ≤30 µM
N#CCCCOc1ccccc1/C(O)=C/C(=O)C(=O)O | 0.4 µM
O=C1NC(=S)SC1=Cc1ccccc1Cl | ≤30 µM
COC(=O)[C@H](C)NP(=O)(OC[C@H]1O[C@@H](n2ccc3c(N)ncnc32)[C@](C)(O)[C@@H]1O)Oc1ccccc1 | <100 µM

3 of the rows above, restated:

structure	result
COC(=O)[C@H](C)NP(=O)(OC[C@H]1O[C@@H](n2ccc3c(N)nc(N)nc32)[C@](C)(O)[C@@H]1O)Oc1ccccc1	<100 µM
O=C1NC(=S)SC1=Cc1ccccc1Cl	≤30 µM
Cc1cccc(/C=C2/SC(=S)N(NS(=O)(=O)c3ccccc3)C2=O)n1	>30 µM